PubChem BioAssay AID1224833 – University of Georgia, 2016
Here is a random part of about 12,000 reagents. About 5,600 of them (46%) count as active. 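Active calls cover z-scores past 1 in both directions, so they include lowered as well as raised rotavirus replication.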

Screen: 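Host factors restraining rotavirus as candidate antiviral genes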 (primary screen)
Cell system: monkey MA104 kidney cells
Knock-down reagent: siRNA pool against human genes, 50 nM
Duration: 48 h knock-down before infection; read 24 h after infection
Conditions: infection with rotavirus strain RV3 two days after transfection; infectious dose for this stage not given
Measured: 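Rotavirus antigen per well by fluorescent immunoassay, normalised to non-targeting control wells on each plate and given as a standard z-score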
Direction: z-score vs non-targeting control: higher = more rotavirus replication than with non-targeting control
Call rule: In these data the active calls have z-score vs non-targeting control at about -1 or lower, or at about 1 or higher
Meaning of the calls: active = z-score beyond 1 either way; inactive = z-score within 1 of zero

| Target gene | z-score vs non-targeting control | Call |
| --- | --- | --- |
| EBF3 (EBF transcription factor 3) | -0.852 | inactive |
| C11orf24 (chromosome 11 open reading frame 24) | -2.46 | active |
| C4BPB (complement component 4 binding protein beta) | 0.814 | inactive |
| CST6 (cystatin E/M) | -0.865 | inactive |
| BRINP1 (BMP/retinoic acid inducible neural specific 1) | 2.24 | active |
| ZNF462 (zinc finger protein 462) | 2.08 | active |
| CFAP69 (cilia and flagella associated protein 69) | -0.523 | inactive |
| IRF6 (interferon regulatory factor 6) | 1.19 | active |
| TRAT1 (T cell receptor associated transmembrane adaptor 1) | -0.797 | inactive |
| FAM227B (family with sequence similarity 227 member B) | -0.469 | inactive |
| GRN (granulin precursor) | 0.494 | inactive |
| LY6H (lymphocyte antigen 6 family member H) | 0.844 | inactive |
| KIF21A (kinesin family member 21A) | 0.742 | inactive |
| GLG1 (golgi glycoprotein 1) | 0.131 | inactive |
| SLC31A1 | 0.599 | inactive |
| L2HGDH (L-2-hydroxyglutarate dehydrogenase) | -2.26 | active |
| PRR3 (proline rich 3) | -1.1 | active |
| RBM26 (RNA binding motif protein 26) | -1.65 | active |
| MFSD8 (major facilitator superfamily domain containing 8) | -1.91 | active |
| HLA-G (major histocompatibility complex, class I, G) | -0.804 | inactive |
| TMEM123 (transmembrane protein 123) | 0.376 | inactive |
| OR5T2 (olfactory receptor family 5 subfamily T member 2) | -1.44 | active |
| RAB1B (RAB1B, member RAS oncogene family) | 0.692 | inactive |
| TGIF2 (TGFB induced factor homeobox 2) | 1.19 | active |
| BPIFA3 (BPI fold containing family A member 3) | -0.334 | inactive |
| VMP1 (vacuole membrane protein 1) | -0.455 | inactive |
| SYNPO2L (synaptopodin 2 like) | -0.825 | inactive |
| DAB2 (DAB adaptor protein 2) | 0.606 | inactive |
| SAPCD2 (suppressor APC domain containing 2) | -0.531 | inactive |
| TAFA1 (TAFA chemokine like family member 1) | -2.55 | active |
| TP53 (tumor protein p53) | -2.63 | active |
| DNMT3B (DNA methyltransferase 3 beta) | -0.782 | inactive |
| NAA30 (N-alpha-acetyltransferase 30, NatC catalytic subunit) | 1.2 | active |
| CAGE1 (cancer antigen 1) | -1 | active |
| HDDC2 (HD domain containing 2) | -1.51 | active |
| SLC25A21 | -2.05 | active |
| RWDD2A (RWD domain containing 2A) | 0.634 | inactive |
| TGFBRAP1 | -0.748 | inactive |
| UBASH3A (ubiquitin associated and SH3 domain containing A) | -0.662 | inactive |
| DCLRE1B (DNA cross-link repair 1B) | -1.01 | active |
| GNG4 (G protein subunit gamma 4) | -1.29 | active |
| PRM1 (protamine 1) | -1.29 | active |
| MOGAT1 (monoacylglycerol O-acyltransferase 1) | -0.692 | inactive |
| DBNL (drebrin like) | -1.32 | active |
| TANK (TRAF family member associated NFKB activator) | 0.698 | inactive |
| C19orf18 (chromosome 19 open reading frame 18) | -1.37 | active |
| CCNB3 (cyclin B3) | -0.636 | inactive |
| RPL21 (ribosomal protein L21) | -0.154 | inactive |
| BBS9 (Bardet-Biedl syndrome 9) | -0.733 | inactive |
| LCN10 (lipocalin 10) | 0.203 | inactive |
| NSF (N-ethylmaleimide sensitive factor, vesicle fusing ATPase) | -1.16 | active |
| KRTAP4-4 (keratin associated protein 4-4) | 0.502 | inactive |
| SLC25A48 | -1.04 | active |
| TCTN2 (tectonic family member 2) | 2.2 | active |
| MATN2 (matrilin 2) | -1.07 | active |
| PRXL2C (peroxiredoxin like 2C) | 0.555 | inactive |
| SHANK2 (SH3 and multiple ankyrin repeat domains 2) | -2.1 | active |
| PWWP3B (PWWP domain containing 3B) | 0.805 | inactive |
| CLMP (CXADR like cell adhesion molecule) | -0.683 | inactive |
| C3orf52 (chromosome 3 open reading frame 52) | 2.63 | active |
| BAX (BCL2 associated X, apoptosis regulator) | -0.838 | inactive |
| MYEOV (myeloma overexpressed) | 0.19 | inactive |
| NIPAL2 (NIPA like domain containing 2) | 1.44 | active |
| ANTKMT (adenine nucleotide translocase lysine methyltransferase) | 1.57 | active |
| CARTPT (CART prepropeptide) | 1.93 | active |
| HMCN1 (hemicentin 1) | -0.6 | inactive |
| SYNGR1 (synaptogyrin 1) | 1.79 | active |
| OASL (2'-5'-oligoadenylate synthetase like) | -1.55 | active |
| KCNIP3 (potassium voltage-gated channel interacting protein 3) | 2.19 | active |
| ITGB7 (integrin subunit beta 7) | 0.716 | inactive |
| NPFF (neuropeptide FF-amide peptide precursor) | 0.0839 | inactive |
| OR4F29 (olfactory receptor family 4 subfamily F member 29) | -1.25 | active |
| PTDSS1 (phosphatidylserine synthase 1) | 1.76 | active |
| CXCL13 (C-X-C motif chemokine ligand 13) | -0.631 | inactive |
| TLX2 (T cell leukemia homeobox 2) | 2.02 | active |
| TSPY2 (testis specific protein Y-linked 2) | 0.394 | inactive |
| METTL26 (methyltransferase like 26) | 0.507 | inactive |
| CAT (catalase) | 0.715 | inactive |
| SPACA5B (sperm acrosome associated 5B) | -1.14 | active |
| DCANP1 (dendritic cell associated nuclear protein 1) | 0.376 | inactive |
| SYNE3 (spectrin repeat containing nuclear envelope family member 3) | 0.939 | inactive |
| IGFL4 (IGF like family member 4) | 0.129 | inactive |
| IL36B (interleukin 36 beta) | -0.812 | inactive |
| COL4A1 (collagen type IV alpha 1 chain) | -0.103 | inactive |
| WNT10B (Wnt family member 10B) | -0.896 | inactive |
| TLE1 (TLE family member 1, transcriptional corepressor) | 2 | active |
| FRYL (FRY like transcription coactivator) | -1.28 | active |
| GYPB (glycophorin B (MNS blood group)) | -0.749 | inactive |
| SLC22A4 | -1.72 | active |
| WDCP (WD repeat and coiled coil containing) | 0.899 | inactive |
| HELZ2 (helicase with zinc finger 2) | 1.63 | active |
| SIDT1 (SID1 transmembrane family member 1) | -1.14 | active |
| RPL26 (ribosomal protein L26) | -1.86 | active |
| GALNTL5 (polypeptide N-acetylgalactosaminyltransferase like 5) | -1.46 | active |
| CAMSAP2 | 0.89 | inactive |
| TRIM43 (tripartite motif containing 43) | -0.926 | inactive |
| AGO1 (argonaute RISC component 1) | 0.783 | inactive |
| LCAT (lecithin-cholesterol acyltransferase) | -0.747 | inactive |
| ZNF341 (zinc finger protein 341) | -0.68 | inactive |
| MRAS (muscle RAS oncogene homolog) | 1.41 | active |
| FOXE3 (forkhead box E3) | -0.897 | inactive |
| NGB (neuroglobin) | 0.808 | inactive |
| TIPE1 (TNF alpha induced protein 8 like 1) | 0.896 | inactive |
| KLF14 (KLF transcription factor 14) | -1.71 | active |
| MIP (major intrinsic protein of lens fiber) | -2.68 | active |
| ZDHHC8 (zDHHC palmitoyltransferase 8) | 0.232 | inactive |
| TMEM87B (transmembrane protein 87B) | -1.32 | active |
| KPNB1 (karyopherin subunit beta 1) | -0.675 | inactive |
| SPANXN4 (SPANX family member N4) | -0.832 | inactive |
| SFMBT2 (Scm like with four mbt domains 2) | -0.0316 | inactive |

Laid out differently: results already given.
Target gene,z-score vs non-targeting control,Call
TANK (TRAF family member associated NFKB activator),0.698,inactive
C19orf18 (chromosome 19 open reading frame 18),-1.37,active
CCNB3 (cyclin B3),-0.636,inactive
RPL21 (ribosomal protein L21),-0.154,inactive
BBS9 (Bardet-Biedl syndrome 9),-0.733,inactive
LCN10 (lipocalin 10),0.203,inactive
"NSF (N-ethylmaleimide sensitive factor, vesicle fusing ATPase)",-1.16,active
KRTAP4-4 (keratin associated protein 4-4),0.502,inactive
SLC25A48,-1.04,active
TCTN2 (tectonic family member 2),2.2,active
MATN2 (matrilin 2),-1.07,active
PRXL2C (peroxiredoxin like 2C),0.555,inactive
SHANK2 (SH3 and multiple ankyrin repeat domains 2),-2.1,active
